A mixed list of measured activities; the numbers were collected in NIAID ChemDB.

All rows: target-level tests

Rows are shuffled and stem from different studies.

SMILES,agent,mutations,method,protein,strain or isolate,tested at,measure,result
CC[C@@H](C)[C@H](NC(=O)[C@@H]1CCCN1C(=O)[C@@H](O)[C@H](Cc1ccccc1)NC(=O)[C@H](CC(N)=O)NC(=O)CCc1ccccc1)C(=O)NCC1CCCCC1,HIV-1,-,-,Protease,-,5 µM,inhibition,86.8%
CC(C)c1nnc2c3ccccc3c(N3CCc4ccccc4C3)nn12,HIV-1,-,RT activity / fluorescence,Reverse transcriptase,98US_MSC5016,-,IC50,5.31 µM
Nc1ccn([C@@H]2CS[C@H](COP(=O)(O)OP(=O)(O)OP(=O)(O)O)O2)c(=O)n1,HIV,RT-Q151M K103N,radiometric,Reverse transcriptase,-,-,fold resistance,0.45
CS(=O)(=O)N1CCc2nc(C(=O)NCc3ccc(F)cc3)c(O)c(=O)n2CC1,HIV-1,-,ELISA,Integrase,-,-,IC50,<10 µM
NC(=O)CCNC(=O)[C@@H]1CCCN1C(=O)[C@@H](O)[C@H](Cc1ccccc1)NC(=O)[C@H](CC(N)=O)NC(=O)CCc1ccccc1,HIV-1,-,-,Protease,-,5 µM,inhibition,39.1%
CN(C)S(=O)(=O)N1CCn2c(nc(C(=O)NCc3ccc(F)cc3)c(O)c2=O)C1(C)C,HIV-1,-,ELISA,Integrase,-,-,IC50,<10 µM
CCCC[C@H](NC(=O)[C@H](C)NC(=O)[C@H](CCC(=O)O)NC[C@H](Cc1ccccc1)NC(=O)[C@H](CC(C)C)NC(=O)[C@@H](NC(=O)[C@@H](N)CCCN=C(N)N)C(C)C)C(N)=O,HIV,PR-K45I,HPLC,Protease,-,-,IC50,>0.075 µM
Cc1cn([C@H]2CC[C@@H](COP(=O)(O)OP(=O)(O)OP(=O)(O)O)O2)c(=O)[nH]c1=O,HIV,RT-T215Y,-,Reverse transcriptase,-,-,Ki,0.21 µM
Cc1nnc2c3ccccc3c(N3Cc4ccccc4C(C)(C)C3)nn12,HIV-1,-,RT activity / fluorescence,Reverse transcriptase,IIIB,-,IC90,68.5 µM
CC(C)(C)NC(=O)[C@H]1N(C(=O)[C@@H](O)[C@H](Cc2ccccc2)NC(=O)[C@H](CC(N)=O)NC(=O)COc2cccc3c2CCCC3)CSC1(C)C,HIV-1,-,-,Protease,-,0.05 µM,inhibition,97.9%
COC(=O)N(C)C1CN(C)CCn2c1nc(C(=O)NCc1ccc(F)cc1)c(O)c2=O,HIV-1,-,ELISA,Integrase,-,-,IC50,<10 µM
Cc1nnc2c3ccccc3c(N3CCc4ncccc4C3)nn12,HIV-1,-,RT activity / fluorescence,Reverse transcriptase,98US_MSC5016,-,IC90,3.06 µM
CC(CO)(CO)NC(=O)[C@@H]1CCCN1C(=O)[C@@H](O)[C@H](Cc1ccccc1)NC(=O)[C@H](CS(C)(=O)=O)NC(=O)COc1cccc2ccccc12,HIV-1,-,-,Protease,-,0.05 µM,inhibition,32.1%
COc1cc2c(cc1OC)CN(c1nn3c(C)nnc3c3ccccc13)CC2,HIV-1,-,RT activity / fluorescence,Reverse transcriptase,KER2008,-,IC90,0.85 µM
Cn1ccc(CN2CCn3c(nc(C(=O)NCc4ccc(F)cc4)c(O)c3=O)C2(C)C)n1,HIV-1,-,ELISA,Integrase,-,-,IC50,<10 µM
c1ccc2c(c1)CCN(c1nn3c(-c4cscn4)nnc3c3ccccc13)C2,HIV-1,-,RT activity / fluorescence,Reverse transcriptase,98US_MSC5016,-,IC90,2.92 µM
O=C1c2c(O)c(=O)c(-c3cccnn3)cn2CCN1Cc1cccc(Cl)c1,HIV-1,-,ELISA,Integrase,-,-,IC50,0.01–0.1 µM
Nc1ccn([C@H]2CC[C@@H](COP(=O)(O)OP(=O)(O)OP(=O)(O)O)O2)c(=O)n1,HIV,RT-L74V T215Y,-,Reverse transcriptase,-,-,fold resistance,14.7
CC(C)(C)NC(=O)[C@@H]1CSCN1C(=O)[C@@H](O)[C@H](Cc1ccccc1)NC(=O)[C@@H](NC(=O)COc1cccc2ccccc12)C(C)(C)S(C)(=O)=O,HIV-1,-,-,Protease,-,0.05 µM,inhibition,92.7%
CNC(=O)c1cn2c(c(O)c1=O)C(=O)N(Cc1cccc(Cl)c1F)CC2,HIV-1,-,ELISA,Integrase,-,-,IC50,0.01–0.1 µM
CS(=O)(=O)C[C@H](NC(=O)COc1cccc2ccccc12)C(=O)N[C@@H](Cc1ccccc1)[C@H](O)C(=O)N1CSC[C@H]1C(=O)NC1CCC(O)CC1,HIV-1,-,-,Protease,-,5 µM,inhibition,>90%
CCN1CCn2c(nc(C(=O)NCc3ccc(F)c(C)c3)c(O)c2=O)C(N(C)C(=O)C(=O)N(C)C)C1,HIV-1,-,ELISA,Integrase,-,-,IC50,<10 µM
COc1ccccc1-c1cn2ccn(Cc3cccc(Cl)c3)c(=O)c2c(O)c1=O,HIV-1,-,ELISA,Integrase,-,-,IC50,0.01–0.1 µM
O=[N+]([O-])c1ccc2c(c1)CN(c1nn3c(C4CC4)nnc3c3ccccc13)CC2,HIV-1,-,RT activity / fluorescence,Reverse transcriptase,IIIB,-,IC90,15.4 µM
CSCCC1CN(Cc2ccc(Cl)c(Cl)c2)C(=O)c2c(O)c(=O)ccn21,HIV-1,-,ELISA,Integrase,-,-,IC50,0.01–0.1 µM
CC1(C)c2nc(C(=O)NCc3ccc(F)cc3)c(O)c(=O)n2CCN1Cc1cscn1,HIV-1,-,ELISA,Integrase,-,-,IC50,<10 µM
Nc1cc2c(c(N3CCOCC3)c1)CCN(c1nn3c(C4CC4)nnc3c3ccccc13)C2,HIV-1,-,RT activity / fluorescence,Reverse transcriptase,98US_MSC5016,-,IC90,57.8 µM
CC(C)=CCN1Cc2cccc3[nH]c(=S)n(c23)C[C@@H]1C,HIV,RT-F61L,nucleotide incorporation,Reverse transcriptase,-,-,IC50,0.18 µM
COc1ccnc2[nH]cc(C(=O)C(=O)N3CCN(C(=O)c4ccccc4)C[C@H]3C)c12,HIV-1,GP120-V68A/M426L,ELISA,gp120,LAI,-,fold resistance,>91

A second listing of 4 rows from above:

SMILES,agent,mutations,method,protein,strain or isolate,tested at,measure,result
CC(C)c1nnc2c3ccccc3c(N3CCc4ccccc4C3)nn12,HIV-1,-,RT activity / fluorescence,Reverse transcriptase,98US_MSC5016,-,IC50,5.31 µM
CN(C)S(=O)(=O)N1CCn2c(nc(C(=O)NCc3ccc(F)cc3)c(O)c2=O)C1(C)C,HIV-1,-,ELISA,Integrase,-,-,IC50,<10 µM
CC1(C)c2nc(C(=O)NCc3ccc(F)cc3)c(O)c(=O)n2CCN1Cc1cscn1,HIV-1,-,ELISA,Integrase,-,-,IC50,<10 µM
CC(CO)(CO)NC(=O)[C@@H]1CCCN1C(=O)[C@@H](O)[C@H](Cc1ccccc1)NC(=O)[C@H](CS(C)(=O)=O)NC(=O)COc1cccc2ccccc12,HIV-1,-,-,Protease,-,0.05 µM,inhibition,32.1%

Two numbers with a dash give a range or band. ICn is the concentration giving n% inhibition. Blank or dashed fields: not listed here. Percent inhibition refers to the dose given; in toxicity tests it is the harm to the cells. Fold resistance has wild type as its base.